Results: patent publication US12433872B2, “Treatment of Acanthamoeba or Balamuthia trophozoites and/or cysts” (GEORGIA STATE UNIVERSITY RESEARCH FOUNDATION, INC., priority 2018, dated 2025)

How the values were obtained:
Type in all cases: cell-based
Details in all cases: selectivity index, A549 IC50 versus 30 day MCC
[1] = tested on: Acanthamoeba healyi cysts; test: Encystation drug susceptibility / excystation viability assay, 30 day recovery, A. healyi cysts
Procedure: (§1) The trophozoites of Acanthamoeba were harvested by mechanical detachment and collected via centrifugation at 4000 rpm at 4° C. for 5 minutes. The trophozoites were washed in 10 mL of Neff's Encystment Media (NEM). NEM composition is 20 mM Tris-HCL [pH 8.8] (2.43 g/L), 100 mM KCL (7.46 g/L), 8 mM MgSO4 (962.96 mg/L), 0.4 mM CaCL2 58.81 mg/L) and 1 mM NaHCO3 (84.01 mg/L) (Neff et al. 1964). All reagents were bought from Sigma Aldrich. Centrifugation of the trophozoites was repeated to ensure any residual growth medium was removed. The pellet was resuspended in a final volume of 15 mL of NEM, cultured in 75 cm^2 corning tissue culture flasks and incubated vertically in a thermal shaker, shaken at 100 rpm at 37° C. for 72 hours to produce fully matured cysts. NEM was supplemented with 250 μg of penicillin/streptomycin. Fresh cysts were produced each time for any experimentation.
(§2) At 72 hours the cysts were harvested using a cell scraper and collected via centrifugation at 4000 rpm at 25° C. for 10 minutes. The cells were washed twice in 10 mL of HyClone™ water, Molecular Biology Grade, and centrifugation was repeated to ensure the removal of any residual NEM. The cell suspension was washed with 0.5% sodium dodecyl sulphate (SDS) to remove any remaining trophozoites and immature cysts. The fully mature cysts were further washed twice with 10 mL of HyClone™ water and 1% NEM, centrifugation was repeated to remove any residue of SDS. The concentration of mature cysts was determined using a haemocytometer and adjusted to 1×10^4 cysts/mL in NEM.
(§3) All test compounds were prepared as 5 mg/mL stock solutions in dimethylsulfoxide (DMSO). All compounds were diluted in NEM, serially diluted in 2-fold dilutions 6 or 11 times, yielding a screening concentration range of 1.56 μg/mL to 50 μg/mL or 48 ng/mL to 50 μg/mL with a final highest screening concentration of 1% DMSO.
(§4) Based on this, a strain specific test period and also a 30 day non-specific recovery time were considered. For the 30 day recovery period, the media was changed 5 times to ensure the contents of wells dis not evaporate and have an effect within the results of the assay.
(§5) 90 μL of 1×10^4 Cysts/ml and 10 μL of experimental compounds from the screening plates were produced according to the protocols above and combined into a Corning clear 96 well treated tissue culture plate. Control wells include cysts in non-drug treated, 1% DMSO, NEM (to be used for negative growth control), NEM Blank, PG blank and cysts in non-drug treated, 1% DMSO, PG (to excyst cells and to be used for positive growth control). The total well volume for all wells was 100 μL. The drug exposed plates were screened at 27° C. for 6 or 24 hours only. At the exposure time point the plates were centrifuged at 4000 rpm at 25° C. for 10 minutes and washed twice with phosphate-buffered saline (PBS) to remove any residual experimental compound.
(§6) Once the plate(s) underwent the Encystation drug susceptibility process, all wells except the negative growth control and NEM blank wells received PG growth medium. All plates were left to recover at 27° C. for the strain specific time period of 5, 9 or 11 days depending on the species of Acanthamoeba. At each of the strain specific time points the plates were removed from incubation and microscopically analysed (qualitatively) for the excystation process for the emergence of excysted viable trophozoites or residual cysts. The presence of excysted trophozoites indicated viable amoebae (non-cystistatic or cysticidal—no effect) and the absence of excystation was considered as cystistatic/cysticidal effects.

[2] = tested on: Acanthamoeba culbertsoni (ATCC30171) cysts; test: Encystation drug susceptibility / excystation viability assay, 30 day recovery, A. culbertsoni cysts
Procedure: as §1, §2, §3, §4, §5, §6

[3] = tested on: Acanthamoeba castellanii (ATCC50370) cysts; test: Encystation drug susceptibility / excystation viability assay, 30 day recovery, A. castellanii cysts
Procedure: as §1, §2, §3, §4, §5, §6

Row | SMILES | A. healyi SI [1] | A. culbertsoni SI [2] | A. castellanii SI [3]
1 | CC(C)NC(=N)c1ccc2nc(-c3ccc(Oc4ccc(-c5nc6ccc(C(=N)NC(C)C)cc6[nH]5)cc4Cl)c(Cl)c3)[nH]c2c1 [P, 2,2′-(Oxybis(3-chloro-4,1-phenylene))bis(N-isopropyl-1H-benzo[d]imidazole-6-carboximidamide)] | 0.49 | 0.25 | 0.27
2 | COc1cc(Oc2ccc(-c3nc4ccc(C(=N)NC(C)C)cc4[nH]3)c(Cl)c2)ccc1-c1nc2ccc(C(=N)NC(C)C)cc2[nH]1 [Compound S] | 1.58 | 3.16 | 1.05
3 | CCCCC(CC)CNC(=N)NC(=N)NCCCCCCNC(=N)NC(=N)NCC(CC)CCCC (stereo not drawn) [Alexidine HCL, alexidine, reference compound] | 0.29 | 0.29 | 0.29
4 | CC(C)NC(=N)c1ccc2nc(-c3ccc(Oc4ccc(-c5nc6ccc(C(=N)NC(C)C)cc6[nH]5)cc4F)cc3)[nH]c2c1 [Compound I, 2-(3-Fluoro-4-(4-(6-(N-isopropylcarbamimidoyl)-1H-benzo[d]imidazol-2-yl)phenoxy)phenyl)-N-isopropyl-1H-benzo[d]imidazole-6-carboximidamide] | 0.82 | 0.41 | 0.82
5 | CC(C)NC(=N)c1ccc2nc(-c3ccc(Oc4ccc(-c5nc6ccc(C(=N)NC(C)C)cc6[nH]5)c(Br)c4)c(F)c3)[nH]c2c1 [Q, 2-(2-Bromo-4-(2-fluoro-4-(6-(N-isopropylcarbamimidoyl)-1H-benzo[d]imidazol-2-yl)phenoxy)phenyl)-N-isopropyl-1H-benzo[d]imidazole-6-carboximidamide] | 0.98 | 1.30 | 0.98
6 | CC(C)NC(=N)c1ccc2nc(-c3ccc(Oc4ccc(-c5nc6ccc(C(=N)NC(C)C)cc6[nH]5)c(Cl)c4)cc3Cl)[nH]c2c1 [L, 2-2′-(Oxybis(2-chloro-4,1-phenylene))bis(N-isopropyl-3H-benzo[d]imidazole-6-carboximidamide)] | 1.45 | 1.45 | 1.45
7 | COc1cc(Oc2ccc(-c3nc4ccc(C(=N)NC(C)C)cc4[nH]3)c(Br)c2)ccc1-c1nc2ccc(C(=N)NC(C)C)cc2[nH]1 [N, 2-(2-Bromo-4-(4-(6-(N-isopropylcarbamimidoyl)-1H-benzo[d]imidazol-2-yl)-3-methoxyphenoxy)phenyl)-N-isopropyl-1H-benzo[d]imidazole-6-carboximidamide] | 0.71 | 1.07 | 0.43
8 | CC(C)NC(=N)c1ccc2nc(-c3ccc(Oc4ccc(-c5nc6ccc(C(=N)NC(C)C)cc6[nH]5)c(Br)c4)c(Br)c3)[nH]c2c1 [Compound R, 2-(2-Bromo-4-(2-bromo-4-(6-(N-isopropylcarbamimidoyl)-1H-benzo[d]imidazol-2-yl)phenoxy)phenyl)-N-isopropyl-1H-benzo[d]imidazole-6-carboximidamide] | 1.18 | 1.57 | 1.57
9 | N=C(NCCCCCCNC(=N)NC(=N)Nc1ccc(Cl)cc1)NC(=N)Nc1ccc(Cl)cc1 [Chlorhexidine, chlorhexidine, reference compound] | 0.03 | 0.03 | 0.03
10 | COc1cc(-c2nc3ccc(C(=N)NC(C)C)cc3[nH]2)ccc1Oc1ccc(-c2nc3ccc(C(=N)NC(C)C)cc3[nH]2)cc1F [J, 2-(3-Fluoro-4-(4-(6-(N-isopropylcarbamimidoyl)-1H-benzo[d]imidazol-2-yl)-2-methoxyphenoxy)phenyl)-N-isopropyl-1H-benzo[d]imidazole-6-carboximidamide] | 0.43 | 0.54 | 0.36
11 | CCC(CC)NC(=N)c1ccc2nc(-c3ccc(Oc4ccc(-c5nc6ccc(C(=N)NC(CC)CC)cc6[nH]5)cc4)cc3)[nH]c2c1 [Compound T] | 4.13 | 5.51 | 2.75
12 | CC(C)NC(=N)c1ccc2nc(-c3ccc(Oc4ccc(-c5nc6ccc(C(=N)NC(C)C)cc6[nH]5)c(Br)c4)cc3)[nH]c2c1 [M, 2-(2-Bromo-4-(4-(6-(N-isopropylcarbamimidoyl)-1H-benzo[d]imidazol-2-yl)phenoxy)phenyl)-N-isopropyl-1H-benzo[d]imidazole-6-carboximidamide] | 1.03 | 0.69 | 1.38
13 | CC(C)NC(=N)c1ccc2nc(-c3ccc(Oc4ccc(-c5nc6ccc(C(=N)NC(C)C)cc6[nH]5)cc4Br)cc3)[nH]c2c1 [O, 2-(3-Bromo-4-(4-(6-(N-isopropylcarbamimidoyl)-1H-benzo[d]imidazol-2-yl)phenoxy)phenyl)-N-isopropyl-1H-benzo[d]imidazole-6-carboximidamide] | 0.33 | 0.33 | 0.33
14 | COc1cc(Oc2ccc(-c3nc4ccc(C(=N)NC(C)C)cc4[nH]3)cc2F)ccc1-c1nc2ccc(C(=N)NC(C)C)cc2[nH]1 [K, 2-(3-Fluoro-4-(4-(6-(N-isopropylcarbamimidoyl)-1H-benzo[d]imidazol-2-yl)-3-methoxyphenoxy)phenyl)-N-isopropyl-1H-benzo[d]imidazole-6-carboximidamide] | 0.52 | 1.39 | 0.42

Counter-ions that a name gives are not always drawn.
